Paper PMC12769810, “Structure and substrate promiscuity of Campylobacter jejuni periplasmic nitrate reductase (Nap) and phylogenetic analysis of Nap homologs” (The Journal of Biological Chemistry, 2025)

Tests used:
[1] = system: [O-][Cl+2]([O-])O; test: purified protein; settings: reduced methyl viologen, 50 mM HEPES pH 7, room temperature, argon glove box, 430 nM enzyme
[2] = system: [O-][Cl+3]([O-])([O-])O; test: purified protein; settings: reduced methyl viologen, 50 mM HEPES pH 7, room temperature, argon glove box, 217 nM enzyme, corrected for background oxidation

CjNapA (WT NapA) (Campylobacter jejuni subsp. jejuni NCTC 11168 = ATCC 700819; C176D)
Km [1]: 0.549 ± 0.065 mM
kcat [1]: 0.35 s⁻¹
kcat/Km [1]: 640 M⁻¹ s⁻¹
Km [2]: 7.678 ± 0.855 mM
kcat [2]: 0.51 s⁻¹
kcat/Km [2]: 66 M⁻¹ s⁻¹
